A mixed list of measured activities; the numbers were collected in NIAID ChemDB.

Shared fields: tests in culture; species: Mycobacterium tuberculosis

An empty or dashed field is not shown. Conditions beyond the fields shown may differ between rows. Percent inhibition refers to the dose given; in toxicity tests it is the harm to the cells. MIC bound: limit read from a one-dose screen. Two numbers with a dash give a range or band. MIC50, MIC90 and the like: level of inhibition, or share of isolates inhibited. ECn: concentration that inhibits the pathogen or its effect by n%.

structure,dose,mutations,strain or isolate,read by,cells,read-out,result
Cc1nc2cc[nH]n2c(=O)c1CCc1ccccc1,6.25 µg/mL,,H37Rv,resazurin,,inhibition,45%
CCC1CCC2(CC1)SCC(=O)N2NC(=O)Cc1csc2nc(-c3ccccc3)cn12,,,H37Rv,,VERO,MIC,3.13 µg/mL
Oc1c(N=NC(=S)Nc2ccc(F)cc2)c2cc(OC(F)(F)F)ccc2n1CN1CCOCC1,,,H37Rv,broth dilution / resazurin,,EC90,3.057 µg/mL
CCCCCCCCNc1nc(-c2ccc(C)cc2)c(C#N)c(=O)[nH]1,,,H37Ra,,,MIC,>50 µg/mL
NNC(=O)c1ccncc1,,,H37Rv,resazurin,,MIC90,0.078 µg/mL
O.O=C(Cc1csc2nc(-c3ccccc3)cn12)NN1C(=O)CSC12CCCCC2,,,H37Rv,,VERO,MIC,6.25 µg/mL
CO[C@H]1/C=C/O[C@@]2(C)Oc3c(C)c(O)c4c(O)c(c(/C=N/N5CCN(C)CC5)c(O)c4c3C2=O)NC(=O)/C(C)=C\C=C\[C@H](C)[C@H](O)[C@@H](C)[C@@H](O)[C@@H](C)[C@H](OC(C)=O)[C@@H]1C,,INH RFP resistant,Clinical Isolate 16833,resazurin,,MIC90,>40 µg/mL
COC1=CC(=O)N(C(=O)C2CSC(C(CO)NC(=O)c3csc(C=NO)n3)=N2)C1,,,H37Rv,BACTEC,,MIC,≥12.8 µg/mL
CC(CNCC(c1ccccc1)c1ccccc1)NC[C@@H]1CC[C@H]2C[C@@H]1C2(C)C,,,H37Rv,,,MIC,0.5 µM
Cc1nc2c([N+](=O)[O-])cc(C(=O)O)cc2[nH]1,6.25 µg/mL,,H37Rv,resazurin,,inhibition,-3%
CC(C)(C)c1ccc(C(=O)Nc2nccc(-c3ccccn3)n2)cc1,,,H37Rv,visual reading,,MIC,>20 µM
CCOC(=O)c1c(C)nc2c(c1-c1cn(-c3ccccc3)nc1-c1ccccc1)C(=O)c1ccccc1-2,,,H37Rv,resazurin,,MIC bound,>6.25 µg/mL
CC(C)(C)OC(=O)CSc1nc(N)c2c3c(sc2n1)CC(C(C)(C)C)CC3,,,H37Rv,MTT / visual reading,,MIC,>200 µg/mL
O=c1nc(N2CCN(CC3CCCCC3)CC2)sc2c([N+](=O)[O-])cc(C(F)(F)F)cc12,,,H37Rv,resazurin,,MIC90,<0.016 µg/mL
CCCN(CCC)CNC(=O)c1cnccn1,,,PZA-resistant,,,MIC,100 µg/mL
c1ccc(Nc2nc(-c3ccc4ccccc4n3)cs2)nc1,,,H37Rv,visual reading,,MIC,1.5 µM
CCN(CC)CCCC(C)Nc1nc(-c2ccc(OC)cc2)c(C#N)c(=O)[nH]1,,,H37Ra,,,MIC,>50 µg/mL
CC(C)(C)C1CCc2c(sc3nc(SCc4ccon4)nc(N)c23)C1,,,H37Rv,MTT / visual reading,,MIC,25 µg/mL
N#Cc1cncc(-n2cncn2)n1,,,Capreomycin-resistant,,,MIC,250 µg/mL
Cn1c(O)c(N=NC(=S)Nc2ccc(F)cc2)c2cc(OC(F)(F)F)ccc21,,,H37Rv,broth dilution / resazurin,,EC90,>100 µg/mL
CCCCCCCCNc1nc(-c2cccnc2)c(C#N)c(=O)[nH]1,,,H37Ra,,,MIC,25–50 µg/mL
O=c1oc2ccccc2cc1-c1cs/c(=N/N=C/c2ccc(F)cc2)n1C1CCCCC1,6.25 µg/mL,,H37Rv,,,inhibition,0%
c1ccc(C(CCNCCN[C@H]2C[C@@H]3CC[C@H]2C3)c2ccccc2)cc1,,,H37Rv,,,MIC,1 µM
COc1ccc(CSC(=S)Nc2ccc(Cl)c([N+](=O)[O-])c2)cc1,,,H37Rv,BACTEC,,MIC bound,≤128 µg/mL
O=[N+]([O-])c1ccc(CN2CCC3(CC2)CCN(c2ccc(C(F)(F)F)cc2)CC3)o1,,,H37Rv,resazurin,,MIC90,<0.016 µg/mL
CCCCCCCCCCCCCCCCCC(=O)OCC(O)CO,,,H37Rv,BACTEC,,MIC bound,>12.5 µg/mL
N#Cc1c(-c2cccnc2)nc(Nc2ccc(F)cc2)[nH]c1=O,,,H37Ra,,,MIC,>50 µg/mL
CC1SC2(CCCCC2)N(NC(=O)Cc2csc3nc(-c4ccccc4)cn23)C1=O.O.O,6.25 µg/mL,,H37Rv,,VERO,inhibition,98%
CC1CN(c2cncc(C(N)=S)n2)CC(C)O1,,,Ethionamide-resistant,,,MIC,62.5 µg/mL
COc1ccc(S(=O)(=O)N2C(=O)CCC2C(=O)NN)cc1,6.25 µg/mL,,H37Rv,resazurin,,inhibition,4%
COc1ccccc1/C=N/N=c1\scc(-c2cc3cc(Br)ccc3oc2=O)n1C1CCCCC1,6.25 µg/mL,,H37Rv,,,inhibition,3%
C=CCNC(=S)N=Nc1c(O)n(CN2CCOCC2)c2ccc(OC(F)(F)F)cc12,,,H37Rv,broth dilution / resazurin,,EC50,1.003 µg/mL
CC(C)=CCC[C@](C)(O[C@@H]1O[C@H](CO[C@@H]2OC[C@H](O)[C@H](O)[C@H]2O)[C@@H](O)C(O)[C@H]1O)[C@H]1CC[C@]2(C)[C@@H]1[C@H](O)C[C@@H]1[C@@]3(C)CC[C@H](O[C@@H]4O[C@H](CO)[C@@H](O)[C@H](O)[C@H]4O[C@@H]4O[C@H](CO)[C@@H](O)[C@H](O)[C@H]4O)C(C)(C)[C@@H]3CC[C@]12C,,,H37Rv,BACTEC,,MIC,≥12.5 µg/mL
C=C(C)CC[C@H]1CN(c2ccn(N3CCOCC3)c2)C(=O)O1,,,ATCC 35828 (pyrazinamide-resistant),,,MIC50,>100 µM
CC1CCCC2(C1)SC(C)C(=O)N2NC(=O)Cc1csc2nc(-c3ccc(Cl)cc3)cn12,,,H37Rv,,,MIC,>6.25 µg/mL
C[C@H](NCCNC[C@@H]1CC[C@H]2C[C@@H]1C2(C)C)C1CCCCC1,,,H37Rv,,,MIC,1 µM
c1ccc(Nc2nc(-c3ccccn3)cs2)nc1,,,H37Rv,visual reading,,MIC,0.8 µM
CC1CCC/C(=N\NC(=O)Cc2csc3nc(-c4ccc(Cl)cc4)cn23)C1,6.25 µg/mL,,H37Rv,,,inhibition,99%
O=C1C=C(Nc2ccccc2C(=O)CC(=O)C(=O)Nc2cccc([N+](=O)[O-])c2)c2ccccc2C1=O,6.25 µg/mL,,H37Rv,resazurin,,inhibition,100%
CC1CCCCN1c1cncc(C(N)=O)n1,,,Isoniazid-resistant,,,MIC,500 µg/mL
N#Cc1c(-c2ccc(F)cc2)nc(NCCN2CCOCC2)[nH]c1=O,,,H37Ra,,,MIC,>50 µg/mL
c1ccc(C(CCNCCNCC23CC4CC(CC(C4)C2)C3)c2ccccc2)cc1,,,H37Rv,,,MIC,0.5 µM
COc1cc(/C=N/N=c2/scc(-c3cc4cc(Br)ccc4oc3=O)n2C2CCCCC2)ccc1O,,,H37Rv,,,MIC,>6.25 µg/mL
C=CCNC(=S)N=Nc1c(O)[nH]c2ccc(OC(F)(F)F)cc12,,,H37Rv,broth dilution / resazurin,,EC50,0.635 µg/mL
CCCNc1nc(-c2cccnc2)c(C#N)c(=O)[nH]1,,,H37Ra,,,MIC,25–50 µg/mL
CC1CCCC2(C1)SCC(=O)N2NC(=O)Cc1csc2nc(-c3ccc(Cl)cc3)cn12,,,H37Rv,,,MIC,>6.25 µg/mL
N#Cc1ccc(N2CC3CC2CN3Cc2ccc([N+](=O)[O-])o2)cc1,,,H37Rv,resazurin,,MIC90,<0.016 µg/mL
Cc1ccc2c(c1)c(N=NC(=S)NCc1ccccc1)c(O)n2C,,,H37Rv,broth dilution / resazurin,,EC50,>100 µg/mL
C[C@@H]1Cn2cc(C(=O)O)c(=O)c3cc(F)c(N4CCN(/C(N)=N/C(N)=NCCCCCCN=C(N)/N=C(\N)N5CCN(c6c(F)cc7c(=O)c(C(=O)O)cn8c7c6O[C@@H](C)C8)CC5)CC4)c(c32)O1,,,ATCC 35830,broth dilution,,MIC,0.625 µg/mL
COc1ccc(OC)c(/C=N/N=c2/scc(-c3cc4cc(Br)ccc4oc3=O)n2C2CCCCC2)c1,,,H37Rv,,,MIC,>6.25 µg/mL
C[N+](C)(C)CC(=O)N/N=C(\Cc1nc2c3c(ccc2[nH]c1=O)C(=O)c1ccccc1C3=O)C(=O)Nc1ccc(Cl)c(Cl)c1.[Cl-],12.5 µg/mL,,H37Rv,BACTEC,,inhibition,26%
CCC(CO)NCCN[C@@H](CC)CO,,,H37Rv,,,MIC,300 µM
O=C(Cc1csc2nc(-c3ccc(Cl)cc3)cn12)NN=C1CCCCC1,,,H37Rv,,,EC50,>6.25 µg/mL
NC(=O)c1cc(C(=O)c2ccccc2O)c[nH]c1=O,,,H37Rv,BACTEC,,MIC,≥12.5 µg/mL
Cc1ccc(NC(=S)N=Nc2c(O)n(C)c3ccc(C)cc23)cc1,,,H37Rv,broth dilution / resazurin,,EC90,>100 µg/mL
Cc1cc(C(=O)O)c(C(N)=O)c(Cl)n1,,,H37Rv,BACTEC,,MIC bound,>12.5 µg/mL
O=C(NCN1CCOCC1)c1cnccn1,,,ATCC 35822,,,MIC,33 µg/mL
COc1ccc(CC2c3cc(OC)c(OC)c(OC)c3CC[N+]2(C)C)cc1Oc1ccc(CC2c3cc4c(c(OC)c3CCN2C)OCO4)cc1.[OH-],12.5 µg/mL,,H37Rv,BACTEC,,inhibition,5%
O=C(Nc1nc(-c2ccccn2)cs1)NC1CCCCC1,,,H37Rv,visual reading,,MIC,1.2 µM
CN1[C@@H](CC(=O)c2ccccc2)CCC[C@H]1C[C@H](O)c1ccccc1,,,H37Rv,BACTEC,,MIC,≥128 µg/mL
Cc1ccc2[nH]c(O)c(N=NC(=S)Nc3ccc(Br)cc3)c2c1,,,H37Rv,broth dilution / resazurin,,EC50,22.7 µg/mL
CN(C)c1ccc(-c2nc(NCCO)[nH]c(=O)c2C#N)cc1,,,H37Ra,,,MIC,>50 µg/mL
COC1CC2CCC(C)C(O)(O2)C(=O)C(=O)N2CCCCC2C(=O)OC(C(C)CC2CCC(O)C(OC)C2)CC(=O)C(C)C=C(C)C(OC(=O)CN(C)C)C(OC)C(=O)C(C)CC(C)\C=C/C=C\C=C/1C,12.5 µg/mL,,H37Rv,BACTEC,,inhibition,26%
CCC1CCC2(CC1)SC(C)C(=O)N2NC(=O)Cc1csc2nc(-c3ccccc3)cn12.O.O,6.25 µg/mL,,H37Rv,,VERO,inhibition,99%
CC(C)(C)C1CCc2c(sc3nc(SCc4ccccc4)nc(N)c23)C1,,,H37Rv,MTT / visual reading,,MIC,>200 µg/mL
CCN(CC)CCCC(C)Nc1nc(-c2ccc(F)cc2)c(C#N)c(=O)[nH]1,,,H37Ra,,,MIC,>50 µg/mL
COC(=O)C(=O)c1c(-c2ccc(Cl)c(Cl)c2)[nH]c2[nH]n(-c3ccccc3)c(=O)c2c1=O,12.5 µg/mL,,H37Rv,BACTEC,,inhibition,11%
O=C(NCN1CCNCC1)c1cnccn1,,,MS6210,,,MIC,33 µg/mL
C1CCCC(NCCNCC23CC4CC(CC(C4)C2)C3)CCC1,,,H37Rv,,,MIC,1 µM
CC1CCC2(CC1)SCC(=O)N2NC(=O)Cc1csc2nc(-c3ccccc3)cn12.O,6.25 µg/mL,,H37Rv,,,inhibition,98%
c1ccc(-c2csc(Nc3cccnc3)n2)nc1,,,H37Rv,visual reading,,MIC,>20 µM
CC(C)(C)C1CCc2c(sc3nc(SCc4ccncc4)nc(N)c23)C1,,,H37Rv,MTT / visual reading,,MIC,>200 µg/mL
CN(CNC(=O)c1cnccn1)Cc1ccccc1,,,ATCC 35822,,,MIC,100 µg/mL
CCCCNc1nc(-c2cccnc2)c(C#N)c(=O)[nH]1,,,H37Ra,,,MIC,>50 µg/mL
CCOC(=O)NC(=S)[S][Sb]([S]C(=S)NC(=O)OCC)[S]c1nc2ccc(N=Nc3ccc(NS(=O)(=O)c4ccc(NC(=O)C(Cl)Cl)cc4)cc3)cc2s1,128 µg/mL,,H37Rv,BACTEC,,inhibition,100%
O=c1oc2ccc(Br)cc2cc1-c1cs/c(=N/N=C/c2ccc(F)cc2)n1C1CCCCC1,6.25 µg/mL,,H37Rv,,,inhibition,11%
CC(=O)NCCc1nc(-c2nc(C(=O)O)cs2)cs1,,,H37Rv,BACTEC,,MIC,≥12.8 µg/mL
Cc1ccc2[nH]c(O)c(N=NC(=S)NCc3ccccc3)c2c1,,,H37Rv,broth dilution / resazurin,,EC90,>100 µg/mL
C[C@@H](NC(=O)Nc1cccc(C(=O)Nc2cc(C(C)(C)C)ccc2C(=O)O)n1)c1ccccc1,,,H37Rv,resazurin,,MIC bound,>6.25 µg/mL
COC(=O)c1cncc(N2CC(C)OC(C)C2)n1,,,Ethionamide-resistant,,,MIC,500 µg/mL
O=C1NNC(c2ccc(Cl)cc2)c2cc(Cl)c(Cl)cc21,6.25 µg/mL,,H37Rv,BACTEC,,inhibition,9%
C=C(C)/C=C/[C@]12C[C@H](C)[C@H]3CC[C@](C)(NC)[C@@H](CC[C@H]1C)[C@@H]32,16 µg/mL,,H37Rv,,,inhibition,95%
CN1CCN(CNC(=O)c2cnccn2)CC1,,,PZA-resistant,,,MIC,>100 µg/mL